Kd and AFM: percentage of purified wild type cores that break on strong compression, with recombinant CypA added up to 40 μM (% of cores broken) data for 1 substance are collected here from publication PMC12871957.

By Kd is commonly meant the equilibrium constant for the complex coming apart. Low readings indicate higher affinity, high ones lower affinity.

Assay [1] addresses HIV-1 capsid (core) with wild type CA (HIV-1). Description: TIRF microscopy of fluorescent CypA bound to cores in immobilised, permeabilised virions; biotinylated HIV-1 particles immobilized on PLL-PEG-biotin coverslips in microfluidic channels, permeabilized with streptolysin O in 0.1 mM IP6; 2 µM AF647-CypA mixed with unlabelled CypA to 2-150 µM final; median signal at equilibrium fitted with an equilibrium binding model.

Assay [2] shares this target.

On to “cyclophilin A (CypA) (from UniProt P62937 1-165) (natural protein)”, for which the Kd in assay [1] was 25.7 µM. Also, the AFM: percentage of purified wild type cores that break on strong compression, with recombinant CypA added up to 40 μM (% of cores broken) in assay [2] worked out at 30.
